According to US12692471B2, “High aspect ratio devices and methods for vitrification of biological samples by rapid cooling” (The General Hospital Corporation, priority 2020, dated 2026):

Experiment: Validation of vitrification of Water-DMSO mixtures in cassettes by imaging
Assay type: physicochemical

With `C[S+](C)[O-]` [DMSO, dimethyl sulfoxide] as the compound, how does the “DMSO concentration at which vitrification is indicated (ice crystallization during gradual warming in air)” value (Water-DMSO mixtures plunged in liquid nitrogen in cassettes) read?
Its value is greater than 25 % v/v.

What about the “minimum DMSO necessary to form extracellular glass” value (vitrification cassettes) of the same compound?
Its value is no less than 30%.
